The text below walks through data of US9901592B2 (priority 2008, dated 2018).

This assay has as its system 20 strains (7 S. aureus, 6 β-haemolytic streptococci and 7 S. pneumoniae). The assay can be described thus: drug interaction (synergy) studies by the checkerboard method. The assay is classed as cell-based. To be noted: in combination with CEM-101.
With `CO/N=C(\C(=O)N[C@@H]1C(=O)N2C(C(=O)O)=C(CSc3nc(=O)c(=O)[nH]n3C)CS[C@H]12)c1csc(N)n1` [CRO, ceftriaxone], the “interaction category: Additive (occurrences)” value (“interaction category: Additive” for short) was 5, the “interaction category: Antagonism (occurrences)” value (“interaction category: Antagonism” for short) stood at 0, the “interaction category: Indeterminate (occurrences)” value was 1 and the “interaction category: Indifferent (occurrences)” value is recorded as 12. The “interaction category: Synergy Complete (occurrences)” value was 0 and the “interaction category: Synergy Partial (occurrences)” value worked out at 2.

For the compound `C[C@H]1COc2c(N3CCN(C)CC3)c(F)cc3c(=O)c(C(=O)O)cn1c23` [Levofloxacin, levofloxacin], the “interaction category: Additive” value was found to be 3, the “interaction category: Antagonism” value is listed as 0, the “interaction category: Indeterminate (occurrences)” value is 0 and the “interaction category: Indifferent (occurrences)” value turned out to be 17. For the same compound, the “interaction category: Synergy Complete (occurrences)” value is 0 and the “interaction category: Synergy Partial (occurrences)” value turned out to be 0.

As to `CN[C@H](CC(C)C)C(=O)N[C@H]1C(=O)N[C@@H](CC(N)=O)C(=O)N[C@H]2C(=O)N[C@H]3C(=O)N[C@H](C(=O)N[C@H](C(=O)O)c4cc(O)cc(O)c4-c4cc3ccc4O)[C@H](O)c3ccc(c(Cl)c3)Oc3cc2cc(c3O[C@@H]2O[C@H](CO)[C@@H](O)[C@H](O)[C@H]2O[C@H]2C[C@](C)(N)[C@H](O)[C@H](C)O2)Oc2ccc(cc2Cl)[C@H]1O` [VAN, vancomycin], the “interaction category: Additive” value is on record as 6, the “interaction category: Antagonism” value turned out to be 0, the “interaction category: Indeterminate (occurrences)” value was determined as 0 and the “interaction category: Indifferent (occurrences)” value is 13. The “interaction category: Synergy Complete (occurrences)” value was 0 and the “interaction category: Synergy Partial (occurrences)” value is recorded as 1.

As to gentamicin, the “interaction category: Additive” value came out at 4, the “interaction category: Antagonism” value is reported as 0, the “interaction category: Indeterminate (occurrences)” value was 0 and the “interaction category: Indifferent (occurrences)” value worked out at 12. Moreover, the “interaction category: Synergy Complete (occurrences)” value is recorded as 2 and the “interaction category: Synergy Partial (occurrences)” value turned out to be 2.

As to trimethoprim/sulfamethoxazole [TMP/SMX], the “interaction category: Additive” value is on record as 4, the “interaction category: Antagonism” value is 0, the “interaction category: Indeterminate (occurrences)” value is given as 0 and the “interaction category: Indifferent (occurrences)” value was 14. The “interaction category: Synergy Complete (occurrences)” value came out at 0 and the “interaction category: Synergy Partial (occurrences)” value is recorded as 2.
